Human monoclonal antibodies against the spike receptor-binding domain (heavy:light variable regions). IC50 against pseudoviruses bearing the spike of naturally observed variants; lower = stronger; >10 µg/ml means not reached at the top dose. No active / inactive call. The stated detection limit is 0.0005 µg/ml; values near or below 0.001 µg/ml lie at the floor of the assay.
B1: BD56-155 (protein)
chain 1: QVQLVESGGGVVQPGRSLRLSCAASGFTFRNYGMHWVRQAPGKGLEWVAVIWYDGSNKYYADSVKGRFTVSRDNSKNALYLQMNSLRADDTAVYYCARDSDDILTGQAPSGLDVWGQGTTVTVSS
chain 2: QSVLTQPPSVSGAPGQRVTISCTGSSSNIGAGYDVHWYQQLPGTAPKLLIYGNTNRPSGVPDRFSGSKSGTSASLAITGLQAEDEADFYCQSYDTYLGGLVFGGGTRLTVL
B2: BD56-157 (protein)
chain 1: QVQLVQSGAEVKKPGASVKVSCKASGYTFTNYAMHWVRQAPGQGLEWMGWINTGNGNTKYSQKFQGRVTISRDTFASIAYMELSSLRSEDTAVFYCARQGLSTVSFAETYLTYEYYFDYWGQGTLVTVSS
chain 2: QSALTQPASVSGSPGQSITISCTGTTSDVGAYDFVSWYQQHPGKAPKLMIYDVSNRPSGVSDRFSGSKSGNTASLTISGLQAEDEADYYCSSFTGSSTFVFGTGTKVTVL
B3: BD56-158 (protein)
chain 1: QVQLQESGPGLVKPSETLSLTCTVSGGSISSYYWTWIRQPPGKGLEWIGHIYYNGSTSNNPSLKSRVTISVDTSKSQFSLKLSSVTAADTAVYYCAGYYYDSSGYDYGFDPWGQGILVTVSS
chain 2: DIQMTQSPSSLSASVADRVTITCRASQSIRSYLNWYQQKAGKAPKLLIYATTNLQSGVPLRFSGSGSGTDFTLTISSLQPEDFATYYCQQTYSTPLTFGGGTKVDIK
B4: BD56-166 (protein)
chain 1: EVQLVESGGGLVQPGRSLRLSCAASGFTFDDYAMHWVRQAPGKGLEWVSGISWNTESKVYADSVKGRFTISRDSAKNSLYLQMNSLRPEDTAFYYCAKDAASGTGGEYFQHWGQGTLVTVSS
chain 2: YVLTQPPSVSVAPGKTARIPCGGDNIGSKSVHWYQQKPGQAPVLVIFYDSDRPSGLPERFSGSNSGNTATLTISRVEAGDEADYYCQVWDSSSSDPVVFGGGTKLTVL
B5: BD56-167 (protein)
chain 1: QVQLVQSGSELKKPGASVKLSCKASGFTFSDYAMIWVRQAPGQGLEWMGWINLNTGSPTYARDFTGRFVFSLDTSADTAYLQISNLKAEDTAVYYCARESRTAMDPFDYWGQGTLVTVSS
chain 2: SYVLTQPPSVSVAPGKTARITCGGTEIGSKSVHWYQQKPGQAPMLVIRYDSDRPSGIPERFSGSNSGNTATLTISRVEAGDEADYYCQVWDGSRYHHVVFGGGTKLTVL
B6: BD56-172 (protein)
chain 1: QVQLQESGPGLVKPSETLSLTCTVSGGSISSYYWNWIRQPPGKGLEWIGFVYYNGSTNYNPSLKSRVTISVDTSKSQFSLRLTSVTAADTAVYYCAGDYGDRYYYFGLDVWAQGTRVTVSS
chain 2: EIVLTQSPGTLSLSPGERATLSCRASQSVYSTYLAWYQQKAGQAPRLLIYGASSRATGIPDRFSGSGSGTDFTLTISRLEPEDFAVYFCQQYGGSRTFGQGTKVEIK
B7: BD56-177 (protein)
chain 1: QVQLVQSGAGVEKPGSSVKVSCKASGGTFSTFAISWVRQVPGQGLEWVGGIIPISGSSNYAQKFRGRVTLTADASTSTVHMELSSLRAEDTAVYYCARGEDRVLTGWVNYFDSWGQGTLVTVSS
chain 2: SYVLTQPPSVSVAPGQTARITCGGNNLGSKNVHWYQQMPGQAPVLVVFDDSDRPSGIPERFSGSNSGNTATLTIARVEAGDEADYYCQVWDSTADHPPYVFGTGTRVTVL
B8: BD56-178 (protein)
chain 1: QVQLVQSGAEMKKPGASVKVSCKASGYTFTTYGISWVRQAPGQGLEWMGWISAYDGHTKYAQRFQGRVTTTADTVASTAYLELRSLRSDDTAVYYCARDLFTKDYYDSSDFDYWGQGTLVTVSS
chain 2: SYELTQPSSVSVSPGQTARITCSGDVLTKKYARWFQQKPGQAPVMVIYKDNERPSGIPERFSGSSSGTTVTLTISGAQVEDEADYYCFCATDNNRLFGGGTKLTVL
B9: BD56-181 (protein)
chain 1: QVHLVQSGSELKKPGASVRVSCKASGYTFTDYSMNWVRQAPGQGLEWLGWINTNTGIPRYAQGFTGRFVFSLDTSVSTAYLHINSLKSEDTAVYYCARVWSYWNDASDAFDIWGQGTRVTVSS
chain 2: QSALTQPASVSGSPGQSITISCTGTSSDVGSYDLVSWFQQHPGKAPKLMIYEGNKRPSGIPNRFSGSKSGNTASLTISGLQADDEANYYCCSFARSTTWVFGGGTKLTVL
B10: BD56-183 (protein)
chain 1: QVQLVESGGGVVQPGRSLRLSCAASGFTFSIYAMHWVRQAPGKGLEWVSVISYDESNEYYADSVKGRFTISRDNSKNTLYLQMNSLRVEDTAMYYCARDRSLGDVSALTTGCPENWGQGTRVTVSS
chain 2: DIQMTQSPSSLSASVGDRVTITCQASQDISNYLNWYQQKPGKAPKLLIYDASNLKTGVPSRFSGSGSGTEFTFTISSLQPEDVATYYCQQYHNLPPLTFGGGTKVEIK
B11: BD56-194 (protein)
chain 1: QVQLVQSGAEVKKPGSSVRVSCKASGDTFRGHAISWVRQAPGQGLEWMGGIIPMFGRPNYAQKFKGRVTITADKSTNTAYMELTSLRSEDTAVYYCAGVASGMTVGDPRTAGDYWGQGTLVTVSS
chain 2: QSVLTQPPSVSAAPGQKVTISCSGSSSNIGNHYVSWYQQLPGSAPKLLISDDNKRPSGIPDRFSGSKSGTSATLGITGLRTGDEADYYCGTWDNGLRAWVFGGGTKLTVL
B12: BD56-197 (protein)
chain 1: EVQLVESGGGLVKPGGSLRLSCAASGFTFSTYSMNWVRQAPGKGLEWVSFIGTSSNHIYYADSVKGRFIISRDNAKNSVYLQMNSLRAEDTAVYYCARDNEWLEWSSMDVWGQGTTVTVSS
chain 2: EIVLTQSPGTLSLSPGERATLSCRASQSVSSSYLAWYQQKPGQAPRLVIYGALSRAIGIPDRFSGSGSGTDFTLTISRLEPEDFAVYYCQQDGGSRYTFGQGTKLEIK

Target: SARS-CoV-2 Omicron BA.1 spike pseudovirus
Experiment: pseudovirus neutralization IC50; higher = weaker neutralization
Method: (§1)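 Single-round VSV luciferase pseudovirus mixed with antibody dilutions for 1 h and put on Huh-7 cells for about a day; IC50 from the dose curve.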

Point of comparison: B12, “pseudovirus neutralization IC50” value 2.23 µg/mL. Against it:
- B1 — higher, > 10 µg/mL
- B2 — higher, > 10 µg/mL
- B3 — higher, > 10 µg/mL
- B4 — higher, > 10 µg/mL
- B5 — higher, > 10 µg/mL
- B6 — 3-fold higher, 6.62 µg/mL
- B7 — higher, > 10 µg/mL
- B8 — within 1.5-fold, 3.01 µg/mL
- B9 — within 1.5-fold, 1.64 µg/mL
- B10 — 4.4-fold higher, 9.72 µg/mL
- B11 — higher, > 10 µg/mL

Target: SARS-CoV-2 Omicron BA.2 spike pseudovirus
Experiment: as above
Method: as §1

Point of comparison: B9, “pseudovirus neutralization IC50” value 1.91 µg/mL. Against it:
- B1 — higher, > 10 µg/mL
- B2 — higher, > 10 µg/mL
- B3 — higher, > 10 µg/mL
- B4 — higher, > 10 µg/mL
- B5 — higher, > 10 µg/mL
- B6 — 3.9-fold higher, 7.51 µg/mL
- B7 — higher, > 10 µg/mL
- B8 — 2.5-fold higher, 4.72 µg/mL
- B10 — higher, > 10 µg/mL
- B11 — higher, > 10 µg/mL
- B12 — 2-fold higher, 3.74 µg/mL

Target: SARS-CoV-2 Omicron BA.2.75 spike pseudovirus
Experiment: as above
Method: as §1

Point of comparison: B9, “pseudovirus neutralization IC50” value 1 µg/mL. Against it:
- B1 — higher, > 10 µg/mL
- B2 — higher, > 10 µg/mL
- B3 — higher, > 10 µg/mL
- B4 — higher, > 10 µg/mL
- B5 — higher, > 10 µg/mL
- B6 — 5.8-fold higher, 5.77 µg/mL
- B7 — higher, > 10 µg/mL
- B8 — 6.1-fold higher, 6.09 µg/mL
- B10 — higher, > 10 µg/mL
- B11 — higher, > 10 µg/mL
- B12 — 3.1-fold higher, 3.15 µg/mL

Target: SARS-CoV-2 Omicron BA.5 spike pseudovirus
Experiment: as above
Method: as §1

Point of comparison: B6, “pseudovirus neutralization IC50” value 7.37 µg/mL. Against it:
- B1 — higher, > 10 µg/mL
- B2 — higher, > 10 µg/mL
- B3 — higher, > 10 µg/mL
- B4 — higher, > 10 µg/mL
- B5 — higher, > 10 µg/mL
- B7 — higher, > 10 µg/mL
- B8 — 1.6-fold lower, 4.49 µg/mL
- B9 — 2.2-fold lower, 3.36 µg/mL
- B10 — higher, > 10 µg/mL
- B11 — higher, > 10 µg/mL
- B12 — 1.9-fold lower, 3.84 µg/mL

Target: SARS-CoV-2 Omicron BQ.1.1 spike pseudovirus
Experiment: as above
Method: as §1

Point of comparison: B12, “pseudovirus neutralization IC50” value 4.05 µg/mL. Against it:
- B1 — higher, > 10 µg/mL
- B2 — higher, > 10 µg/mL
- B3 — higher, > 10 µg/mL
- B4 — higher, > 10 µg/mL
- B5 — higher, > 10 µg/mL
- B6 — 1.6-fold higher, 6.54 µg/mL
- B7 — higher, > 10 µg/mL
- B8 — 1.6-fold lower, 2.55 µg/mL
- B9 — higher, > 10 µg/mL
- B10 — higher, > 10 µg/mL
- B11 — higher, > 10 µg/mL

Target: SARS-CoV-2 Omicron XBB spike pseudovirus
Experiment: as above
Method: as §1

Point of comparison: B12, “pseudovirus neutralization IC50” value 3.98 µg/mL. Against it:
- B1 — higher, > 10 µg/mL
- B2 — higher, > 10 µg/mL
- B3 — higher, > 10 µg/mL
- B4 — higher, > 10 µg/mL
- B5 — higher, > 10 µg/mL
- B6 — 1.5-fold higher, 6.1 µg/mL
- B7 — higher, > 10 µg/mL
- B8 — 1.6-fold higher, 6.2 µg/mL
- B9 — higher, > 10 µg/mL
- B10 — higher, > 10 µg/mL
- B11 — higher, > 10 µg/mL

Target: SARS-CoV-2 early D614G spike pseudovirus
Experiment: as above
Method: as §1

Point of comparison: B6, “pseudovirus neutralization IC50” value 4.98 µg/mL. Against it:
- B1 — higher, > 10 µg/mL
- B2 — higher, > 10 µg/mL
- B3 — higher, > 10 µg/mL
- B4 — higher, > 10 µg/mL
- B5 — higher, > 10 µg/mL
- B7 — higher, > 10 µg/mL
- B8 — higher, > 10 µg/mL
- B9 — 3.8-fold lower, 1.3 µg/mL
- B10 — higher, > 10 µg/mL
- B11 — higher, > 10 µg/mL
- B12 — 1.6-fold lower, 3.03 µg/mL

From the supplement of paper PMC9931576
